Results of unrelated studies side by side (data: NIAID ChemDB).

Common to all: tests in culture; agent: Mycobacterium tuberculosis

Fold resistance: result on the changed form divided by that on wild type. MIC bound comes from a single tested concentration. Rows are shuffled and stem from different studies. Two numbers with a dash give a range or band. Percent inhibition refers to the dose given; in toxicity tests it is the harm to the cells. MIC50, MIC90 and the like: level of inhibition, or share of isolates inhibited. Blank or dashed fields: not listed here.

structure,measure,method,changes,setting,cells,tested at,strain or isolate,value
O=C1OCC2(CO)SC(c3ccccc3)NC12,MIC bound,BACTEC,-,-,-,-,H37Rv,>12.5 µg/mL
CN[C@@H]1[C@H](O[C@H]2[C@H](O[C@H]3[C@H](O)[C@@H](O)[C@H](N=C(N)N)[C@@H](O)[C@@H]3N=C(N)N)O[C@@H](C)[C@]2(O)C=O)O[C@@H](CO)[C@H](O)[C@H]1O,MIC,-,-,-,-,-,Ravenel #226,4 µg/mL
O=c1c2c([nH]c3c1ccc1[nH]c4c(c(=O)c13)CCCC4)CCCC2,MIC,BACTEC,-,-,-,-,H37Rv,≥12.5 µg/mL
COc1ccc(/C=N/Nc2cc(C)nc3ccc(F)cc23)c2ccccc12,MIC,-,-,-,VERO,-,H37Rv,3.13 µg/mL
CC(C)c1ccc2c(c1)CC[C@H]1[C@](C)(CNCCNCc3ccccc3Sc3ccccc3CO)CCC[C@]21C,MIC,-,-,-,-,-,-,50 µM
O=c1oc2ccc([N+](=O)[O-])cc2c(=O)n1-c1ccc(Br)cc1,MIC,-,-,-,-,-,CNCTC MY331/88,31 µM
NCC[C@H](O)C(=O)N[C@@H]1C[C@H](N)[C@@H](O[C@H]2O[C@H](CN)[C@@H](O)[C@H](O)[C@H]2O)[C@H](O)[C@H]1O[C@H]1O[C@H](CO)[C@@H](O)[C@H](N)[C@H]1O,MIC,-,-,-,-,-,9R,2.5 µg/mL
C=C/C(C)=C/[C@@]1(C)SC(=O)C(C)=C1O,MIC,-,-,-,-,-,PMH29:kasA/inhA,30 µg/mL
C[C@@H]1CN(c2c(F)c(N)c3c(=O)c(C(=O)O)cn(C4CC4)c3c2F)C[C@H](C)N1,MIC,-,-,-,-,-,MDR-22 (MDR),<0.1 µg/mL
CC(=O)Oc1ccccc1C(=O)Nc1ncc([N+](=O)[O-])s1,MIC,visual reading,-,-,-,-,T spoligotype 51,20 µg/mL
C=CCNCCNCCC(c1ccccc1)c1ccccc1,MIC,-,-,-,-,-,-,50 µM
O=c1oc2ccc(Br)cc2c(=S)n1-c1ccccc1,MIC,-,-,21 d,-,-,My 331/88,1 µM
COc1ccc2nc(-c3ccccc3)cc(N/N=C/c3ccc(NC(C)=O)cc3)c2c1,MIC,-,-,-,VERO,-,H37Rv,12.5 µg/mL
CCCCOc1ccc(NC(=S)Nc2ccc(N(C)C)cc2)cc1,MIC,-,-,-,-,-,76,7.8 µg/mL
Cc1c(-c2ccccc2)noc1-n1nnc2ccccc2c1=O,MIC bound,BACTEC,-,-,-,-,H37Rv,>12.5 µg/mL
CCOC(=O)c1ccc(-n2c(=O)oc3cc(OC)ccc3c2=O)cc1,MIC,-,-,-,-,-,CNCTC MY331/88,2 µM
CN(C)CCNc1cccc2oc3ccc(O)cc3c(=O)c12,inhibition,BACTEC,-,-,-,12.5 µg/mL,H37Rv,44%
CC(NNC(=O)c1ccncc1)c1ccc(Cl)cc1Cl,MIC,-,-,-,-,-,H37Rv,3.13 µg/mL
C/C(=N\NC(=O)c1ccncc1)c1ccccc1O,MIC bound,BACTEC,-,-,-,-,H37Rv,≤128 µg/mL
CCCCc1ccc2nc(C)cc(N/N=C/c3ccc4c(c3)OCO4)c2c1,inhibition,-,-,-,VERO,12.5 µg/mL,H37Rv,100%
Cc1cc(/C=C2\SC(=S)N(c3ccccc3)C2=O)c(C)n1-c1ccccc1,MIC bound,resazurin,-,-,-,-,-,>6.25 µg/mL
O=c1cc(-c2ccccc2Br)oc2ccccc12,inhibition,-,-,-,-,12.5 µg/mL,H37Rv,23%
CC(NNC(=O)c1ccncc1)c1ccc(F)cc1,MIC,-,-,-,-,-,H37Rv (isoniazid-resistant),>31.25 µg/mL
CC(=O)OCC1OC(OC2=C(CC=C(C)C)C(=O)c3ccccc3C2=O)C(OC(C)=O)C(OC(C)=O)C1OC(C)=O,MIC,BACTEC,-,-,-,-,H37Rv,32 µg/mL
COc1ccc(C(=O)/C=C/c2cccnc2)cc1,MIC,-,-,-,-,-,H37Rv,>12.5 µg/mL
O=C1C=C(Nc2ccccc2N=C2C(N3C4=CCc5ccccc5C4=Nc4ccccc43)=CC(=O)c3ccccc32)C(=O)c2ccccc21,MIC,BACTEC,-,-,VERO,-,H37Rv,0.78 µg/mL
Clc1ccc(SCCCCn2ccnc2)cc1,MIC99,turbidity / fluorescence,-,-,-,-,H37Rv,20 µM
O=C(O)c1ccc2oc(-c3ccccc3)cc(=O)c2c1,inhibition,-,-,-,-,12.5 µg/mL,H37Rv,0%
O=c1oc2cc(Cl)ccc2c(=O)n1-c1cccc(Cl)c1,MIC,-,-,-,-,-,CNCTC MY331/88,4 µM
O=C(N/N=C/c1cccc(C(F)(F)F)c1)c1ccncc1,MIC,-,-,-,-,-,H37Rv (ethambutol-resistant),1 µg/mL
CCC1(CC)OC(=O)C(=O)N1N(C)C,inhibition,BACTEC,-,-,-,12.5 µg/mL,H37Rv,9%
NNC(=O)c1ccncc1,MIC,-,-,-,-,-,Isolate 15,1 µg/mL
CCc1nc2ccc(C)cc2n1CCCCSc1ccc(Cl)cc1,fold resistance,turbidity / fluorescence,Rv1339 V90M,-,-,-,H37Rv,0.8
COc1c(N2CCNC(C)C2)c(F)cc2c(=O)c(C(=O)O)cn(C3CC3)c12,MIC,-,-,-,-,-,Strain 34,0.125 µg/mL
O=c1oc2ccc([N+](=O)[O-])cc2c(=O)n1-c1ccc(Cl)c(Cl)c1,MIC,-,-,-,-,-,CNCTC MY331/88,31 µM
CC(NNC(=O)c1ccncc1)c1ccc(Cl)c(Cl)c1,MIC,-,-,-,-,-,Ethambutol-resistant,≤0.78 µg/mL
CC(=O)C(N=Nc1ccc(S(=O)(=O)Nc2nncs2)cc1)C(=O)Nc1ccccc1C,inhibition,resazurin,-,-,-,6.25 µg/mL,H37Rv,-7%
COc1ccc(-n2cc(CSC3c4ccccc4-c4ccccc43)nn2)cc1,MIC99,broth dilution,-,-,-,-,H37Rv,129.7 µM
O=c1oc2ccccc2c(=O)n1-c1ccc(F)cc1,MIC,-,-,-,-,-,CNCTC MY331/88,125 µM
CCOc1ccc2c(N/N=C/c3ccc(OC)c4ccccc34)ccnc2c1,MIC,-,-,-,VERO,-,H37Rv,6.25 µg/mL
NC(=S)N/N=C/C1CNCCN1,MIC bound,BACTEC,-,-,-,-,H37Rv,>12.5 µg/mL
O=S(=O)(Cc1cn(-c2ccc(F)cc2)nn1)C1c2ccccc2-c2ccccc21,MIC99,broth dilution,-,-,-,-,H37Rv,123 µM
CO[C@H]1/C=C/O[C@@]2(C)Oc3c(C)c(O)c4c(O)c(c5c(c4c3C2=O)NC2(CCN(CC(C)C)CC2)N=5)=NC(=O)/C(C)=C\C=C\[C@H](C)[C@H](O)[C@@H](C)[C@@H](O)[C@@H](C)[C@H](OC(C)=O)[C@@H]1C,MIC,-,-,-,-,-,Strain 69,0.03 µg/mL
OC(C1=Nc2cccc3cccc(c23)N1)c1ccccc1,MIC bound,BACTEC,-,-,-,-,H37Rv,≤128 µg/mL
O=c1oc2ccc(Br)cc2c(=S)n1-c1ccc(Cl)cc1,MIC,-,-,21 d,-,-,My 331/88,1 µM
CO[C@H]1/C=C/O[C@@]2(C)Oc3c(C)c(O)c4c(O)c(c(/C=N/N5CCN(C6CCCC6)CC5)c(O)c4c3C2=O)NC(=O)/C(C)=C\C=C\[C@H](C)[C@H](O)[C@@H](C)[C@@H](O)[C@@H](C)[C@H](OC(C)=O)[C@@H]1C,MIC,-,-,-,-,-,H37Rv (rifampicin-resistant),>40 µg/mL
C/C(=N\NC(=O)c1ccncc1)c1ccccc1F,MIC,-,-,-,-,-,Rifampicin-resistant,0.2 µg/mL
O=c1oc(-c2ccc(O)cc2)nn1CN1CCOCC1,MIC bound,BACTEC,-,-,-,-,H37Rv,>12.5 µg/mL
O=c1oc2ccccc2c(=O)n1-c1ccc([N+](=O)[O-])cc1,MIC,-,-,-,-,-,CNCTC MY331/88,16 µM
C[C@H]1COc2c(N3CCN(C)CC3)c(F)cc3c(=O)c(C(=O)O)cn1c23,MIC,-,-,-,-,-,H37RV (DRUG-SUS),0.5 µg/mL
CCc1nc2ccc(C)cc2n1CCCCSc1ccccc1,MIC99,turbidity / fluorescence,-,-,-,-,H37Rv,0.22 µM
Oc1cc2c(c3c(O)c4ccccc4c(O)c13)=NC1CCCCC1N=2,MIC bound,BACTEC,-,-,-,-,H37Rv,>12.5 µg/mL
C[C@H]1COc2c(N3CCN(C)CC3)c(F)cc3c(=O)c(C(=O)O)cn1c23,MIC,-,-,-,-,-,Strain 32,0.125 µg/mL
Clc1ccc(-n2cc(CSC3c4ccccc4-c4ccccc43)nn2)c(Cl)c1,MIC99,broth dilution,-,-,-,-,Specimen 192,>236 µM
O=C(NNCc1cccc(C(F)(F)F)c1)c1ccncc1,MIC,-,-,-,-,-,H37Rv (isoniazid-resistant),>31.25 µg/mL
CN[C@@H]1[C@H](O[C@H]2[C@H](O[C@H]3[C@H](O)[C@@H](O)[C@H](N=C(N)N)[C@@H](O)[C@@H]3N=C(N)N)O[C@@H](C)[C@]2(O)C=O)O[C@@H](CO)[C@H](O)[C@H]1O,MIC,-,-,-,-,-,Isolate 11,64 µg/mL
Cc1ccc(-n2c(=O)oc3cc(C)ccc3c2=O)cc1,MIC,-,-,-,-,-,CNCTC MY331/88,125 µM
COc1ccc(CCc2cc(OC)c3ccccc3n2)cc1OC,MIC,-,-,-,-,-,MT2,77 µg/mL
c1coc(CNCCNCc2ccco2)c1,MIC,-,-,-,-,-,-,25 µM
CC[C@H]1OC(=O)[C@H](C)[C@@H](O[C@H]2C[C@@](C)(OC)[C@@H](O)[C@H](C)O2)[C@H](C)[C@@H](O[C@@H]2O[C@H](C)C[C@H](N(C)C)[C@H]2O)[C@](C)(OC)C[C@@H](C)C(=O)[C@H](C)[C@@H](O)[C@]1(C)O,MIC,-,-,-,-,-,MDR-1 (MDR),>8 µg/mL
CN(C)CCCN1c2ccccc2Sc2ccc(Cl)cc21,MIC,-,-,-,-,-,Isolate D (drug-resistant),20 µg/mL
COc1ccc(-c2cc(=O)c3ccc(I)cc3o2)cc1,MIC,-,-,-,-,-,H37Rv,>12.5 µg/mL
CCc1nc2ccccc2n1CCCCOc1ccc(Cl)cc1C,MIC90,turbidity / fluorescence,QcrB M342T,-,-,-,H37Rv,>100 µM
CN(C)CCNc1cccc2sc3ccc(O)cc3c(=O)c12,MIC,BACTEC,-,-,VERO,-,H37Rv,6.25 µg/mL
N[C@@H]1CN(c2c(F)cc3c(=O)c(C(=O)O)cn([C@@H]4C[C@@H]4F)c3c2Cl)CC12CC2,MIC,resazurin,Gyrase Asp94Asn/Ala90Val,-,-,-,Clinical strain,0.625 µg/mL
CC(C)N=c1cc2n(-c3ccc(Cl)cc3)c3ccccc3nc-2cc1Nc1ccc(Cl)cc1,MIC,-,-,multidrug-resistant,-,-,2219,0.12 µg/mL
O=c1oc2ccc(Br)cc2c(=O)n1-c1cccc(Cl)c1,MIC,-,-,-,-,-,CNCTC MY331/88,8 µM
CCOc1ccc(NC(=S)Nc2ccc(OCC(C)C)cc2)cc1,MIC,-,-,-,-,-,BCG #256,31.3 µg/mL
COC(=O)C[C@H](NC(=O)[C@@H]1CCCN1C(=O)C(F)(F)F)C(=O)OC,inhibition,resazurin,-,-,-,6.25 µg/mL,H37Rv,10%
CC(Cc1c[nH]c2ccccc12)NCCNC1CCCc2ccccc21,MIC,-,-,-,-,-,-,50 µM
Cc1ccc2oc(=S)n(-c3cccc(Cl)c3)c(=S)c2c1,MIC,-,-,14 d,-,-,My 331/88,0.5 µM
Nc1ccccc1/C=C/C(=O)c1cc(Br)ccc1O,inhibition,-,-,-,-,12.5 µg/mL,H37Rv,8%
CC[C@@H](CO)NCCN[C@@H](CC)CO,MIC,-,-,-,-,-,Isolate 15,1 µg/mL
O=C(NNCc1ccccc1F)c1ccncc1,MIC,-,-,-,-,-,H37Rv (kanamycin-resistant),2 µg/mL
CC(=O)NC[C@H]1CN(c2ccc(N3CCOCC3)c(F)c2)C(=O)O1,MIC,-,-,-,-,-,6R,0.5 µg/mL
S=c1oc2ccc(Br)cc2c(=S)n1-c1cccc(Cl)c1,MIC,-,-,14 d,-,-,My 331/88,1 µM
CCc1nc2ccccc2n1CCCCOc1ccc(Cl)cc1,MIC90,turbidity / fluorescence,Rv1339 V90M,-,-,-,H37Rv,13 µM
NNC(=O)c1ccncc1,MIC,resazurin,-,-,-,-,Strep-r,50–100 µg/mL
COc1ccc2ccccc2c1/C=N/Nc1ccnc2cc(Cl)ccc12,MIC,-,-,-,VERO,-,H37Rv,6.25 µg/mL
Clc1ccc(-n2cc(CNC3c4ccccc4-c4ccccc43)nn2)c(Cl)c1,MIC99,broth dilution,-,-,-,-,H37Rv,>246 µM
COC(=O)C1=C(\N2CCCC2)CC(C)(C)CC(=O)/C=C\1C(=O)OC,inhibition,BACTEC,-,-,-,12.5 µg/mL,H37Rv,-9%
CCc1nc2ccccc2n1CCCCNc1ccc(OC)cc1,fold resistance,turbidity / fluorescence,Rv1339 V90M,-,-,-,H37Rv,0.4
CC(=O)NNc1nc(C)c(C(/C=C/c2ccc(Cl)cc2)=N/NC(=S)NN)s1,MIC bound,resazurin,-,-,-,-,H37Rv,>6.25 µg/mL
O=C(N/N=C/c1ccccc1F)c1ccncc1,MIC,-,-,-,-,-,Erdman,0.05 µg/mL
Nc1c(C(=O)Nc2ccccc2)[n+]([O-])c2ccccc2[n+]1[O-],MIC,-,-,-,-,-,RMP-R,3.1 µg/mL
COc1ccc2oc(=O)n(-c3ccc(C)cc3)c(=O)c2c1,MIC,-,-,-,-,-,CNCTC MY331/88,125 µM
CC(C)CC(NC(=O)C(C)NC(=O)C(NC(=O)OCc1ccccc1)C(C)O)C(=O)NC(CC(C)C)C(=O)NCC(=O)NN,MIC bound,BACTEC,-,-,-,-,H37Rv,>12.5 µg/mL
O=C(NNCc1ccccc1)c1ccncc1,MIC,-,-,-,-,-,Rifampicin-resistant,0.39 µg/mL